# Potato spindle tuber viroid, loop 15: variant abundance in plants

From the data files of Wu et al. 2024, doi:10.1371/journal.ppat.1012142.

PSTVd intermediate strain, loop 15: wild type GGAAACCGCUACUAC, pool pattern GGAAACCGNNNNNNC; upper and lower strand joined, each 5' to 3', the first 7 letters being the upper strand, closing pairs included.

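Three N. benthamiana plants were inoculated with the whole mutant pool. Progeny were sequenced from the inoculated region (day 5), the margin of the inoculated leaf (day 10) and systemic leaves (day 12).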

Values are reads per thousand in the sample; higher means more abundant, 0 means not found. Each value is the mean of three plants. "Pool" is the share in the plasmid pool used as inoculum, on the same scale. The inoculated region was read from the minus strand, the other sites from the plus strand. For reference, wild type rose from 33.9 per thousand in the pool to 202, 200, 159 (inoculated region), 724, 746, 710 (leaf margin) and 856, 883, 880 (systemic leaves). The authors trace changes outside the varied positions to PCR and sequencing errors or to mutation in the plant; presence does not show that a variant is infectious alone. With 43,870-66,106 reads a sample, very low values are single reads.

For GGAAACCGCUGGAGC (pool 0.272) the result was inoculated region 0.138; leaf margin 0.00742; systemic leaves 0. GGAAACCGUCAUUCC (pool 0.224) gave inoculated region 0.357; leaf margin 0.0760; systemic leaves 0.0776. For GGAAACCGAGUGUAC (pool 0.240) the result was inoculated region 0.413; leaf margin 0.0659; systemic leaves 0.0442. With GGAAACCGAAUCAAC (pool 0.208) the assay gave inoculated region 0.120; leaf margin 0.0128; systemic leaves 0. GGAAACCGGGCGGAC (pool 0.192) gave inoculated region 0.122; leaf margin 0.0121; systemic leaves 0. With GGAAACCGCCUGCUC (pool 0.128) the assay gave inoculated region 0.105; leaf margin 0.0134; systemic leaves 0. For GGAAACCGGAACAGC (pool 0.176) the result was inoculated region 0.113; leaf margin 0.0308; systemic leaves 0.

GGAAACCGCGACGUC (pool 0.304) gave inoculated region 0.108; leaf margin 0; systemic leaves 0. GGAAACCGUCCUAAC (pool 0.256) read inoculated region 0.148; leaf margin 0; systemic leaves 0. GGAAACCGCAGACUC (pool 0.224) read inoculated region 0.173; leaf margin 0.00668; systemic leaves 0. GGAAACCGACAUCGC (pool 0.160) read inoculated region 0.0937; leaf margin 0.0108; systemic leaves 0. GGAAACCGCGCUGCC (pool 0.384) gave inoculated region 0.0681; leaf margin 0.00742; systemic leaves 0. With GGAAACCGCGCAAAC (pool 0.256) the assay gave inoculated region 0.0901; leaf margin 0.00539; systemic leaves 0. With GGAAACCGCUUGUCC (pool 0.224) the assay gave inoculated region 0.0965; leaf margin 0.00539; systemic leaves 0.

GGAAACCGUUGCUGC (pool 0.224) gave inoculated region 0.131; leaf margin 0.0141; systemic leaves 0. GGAAACCGGUGUGAC (pool 0.304) gave inoculated region 0.107; leaf margin 0; systemic leaves 0. GGAAACCGUCUCUGC (pool 0.304) read inoculated region 0.124; leaf margin 0.383; systemic leaves 0. For GGAAACCGGUUUACC (pool 0.176) the result was inoculated region 0.0963; leaf margin 0.0187; systemic leaves 0. With GGAAACCGUGUACUC (pool 0.288) the assay gave inoculated region 0.0669; leaf margin 0.0108; systemic leaves 0. For GGAAACCGCACUUCC (pool 0.304) the result was inoculated region 0.0812; leaf margin 0.00668; systemic leaves 0. For GGAAACCGUAGCGUC (pool 0.208) the result was inoculated region 0.0941; leaf margin 0; systemic leaves 0.00537.

GGAAACCGUGCAAAC (pool 0.0960) read inoculated region 0.119; leaf margin 0.0336; systemic leaves 0.0107. GGAAACCGACACUGC (pool 0.208) read inoculated region 0.337; leaf margin 0.0844; systemic leaves 0.0268. GGAAACCGCCCAUAC (pool 0.0800) read inoculated region 0.356; leaf margin 0.0872; systemic leaves 0.0841. With GGAAACCGAGCGAUC (pool 0.176) the assay gave inoculated region 0.798; leaf margin 0.871; systemic leaves 0.00537. GGAAACCGAGGGCUC (pool 0.384) read inoculated region 0.0851; leaf margin 0.0108; systemic leaves 0. GGAAACCGCUUUACC (pool 0.208) gave inoculated region 0.0986; leaf margin 0.00742; systemic leaves 0.00760. With GGAAACCGUCCUAUC (pool 0.336) the assay gave inoculated region 0.108; leaf margin 0.00742; systemic leaves 0.

GGAAACCGAUCCCUC (pool 0.240) read inoculated region 0.113; leaf margin 0; systemic leaves 0. GGAAACCGUAGUAUC (pool 0.240) gave inoculated region 0.130; leaf margin 0.0121; systemic leaves 0. For GGAAACCGGAAAACC (pool 0.272) the result was inoculated region 0.0947; leaf margin 0.0108; systemic leaves 0. GGAAACCGGCAACGC (pool 0.112) gave inoculated region 0.122; leaf margin 0.0175; systemic leaves 0. With GGAAACCGGGCCCUC (pool 0.208) the assay gave inoculated region 0.0913; leaf margin 0.0141; systemic leaves 0. GGAAACCGCGCAACC (pool 0.256) read inoculated region 0.0623; leaf margin 0.00668; systemic leaves 0.00537. GGAAACCGCUCACGC (pool 0.368) gave inoculated region 0.162; leaf margin 0.0410; systemic leaves 0.00537.

The last 2 entries again:

{"sequence": "GGAAACCGCGCAACC", "pool": "0.256", "inoculated region": 0.0623, "leaf margin": 0.00668, "systemic leaves": 0.00537}
{"sequence": "GGAAACCGCUCACGC", "pool": "0.368", "inoculated region": 0.162, "leaf margin": 0.0410, "systemic leaves": 0.00537}